These binders were tested against mouse muscle type nAChR α1β1δε (mouse), P04756 (assay: cell-based or functional assay).
TCRSSGRYCRSPYDRRRRYCRRITDACV (modifications not checked) [αO-conotoxin GeXIVA12 (GeXIVA mature peptide isomer with disulfide bonds I-II, III-IV)] showed a Half-blocking dose IC50, ACh-gated current, oocyte voltage clamp of 394 nM.
For TCRSSGRYCRSPYDRRRRYCRRITDACV (modifications not checked) [αO-conotoxin GeXIVA13 (GeXIVA mature peptide isomer with disulfide bonds I-III, II-IV)], the Half-blocking dose IC50, ACh-gated current, oocyte voltage clamp was 671 nM.
Work on TCRSSGRYCRSPYDRRRRYCRRITDACV (modifications not checked) [αO-conotoxin GeXIVA14 (GeXIVA mature peptide isomer with disulfide bonds I-IV, II-III)] yielded a Half-blocking dose IC50, ACh-gated current, oocyte voltage clamp of 473 nM.
